Data as given in PubChem BioAssay AID624099 (ICCB-Longwood, 2012)

Test: 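Human genes that papillomavirus E2 requires to repress the HPV18 LCR promoter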 (primary screen)
Cells: human C33A cervical carcinoma cells (HPV-negative) stably expressing BPV1 E2 and an HPV18 LCR luciferase reporter
Reagents: siRNA pool against human genes, 40 nM
Time to read-out: 72 h
Read-out: 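Per-well luciferase luminescence, z-scored on each plate against the plate mean and SD with control wells left out, then averaged across three replicate plates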
Reading the numbers: mean z-score and z-score: higher = stronger reporter signal, weaker E2 silencing
Active means: 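Mean z ≥ 2 together with z ≥ 2 in two or more of the three replicates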
This is an unselected part of about 21,000 reagents. Of all reagents, 497 (2.4%) were called active. 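Higher z means weaker E2 silencing; only reporter increases were scored, and knock-downs that hurt cell survival may mask genuine repressor factors.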 No sequences are given here.

| gene knocked down | mean z-score | z-score, replicate A | z-score, replicate B | z-score, replicate C | Call |
| --- | --- | --- | --- | --- | --- |
| GPR19 (GeneID 2842) | -0.34 | -0.43 | -0.22 | -0.37 | inactive |
| ORMDL3 (GeneID 94103) | -0.48 | -0.57 | -0.79 | -0.07 | inactive |
| TCEA1 (GeneID 6917) | -1.22 | -1.17 | -1.27 | -1.2 | inactive |
| ERICH6B (GeneID 220081) | -0.25 | 0.07 | -0.19 | -0.63 | inactive |
| SCN10A (GeneID 6336) | -1.19 | -1.39 | -0.99 | -1.2 | inactive |
| CYB5R4 (GeneID 51167) | -0.01 | -0.24 | 0.22 | -0.02 | inactive |
| DNAL4 (GeneID 10126) | -0.39 | -0.69 | -0.21 | -0.28 | inactive |
| NIP7 (GeneID 51388) | 1.28 | 2 | 0.9 | 0.95 | inactive |
| LOC402675 (retired record) (GeneID 402675) | 0.9 | 0.47 | 1.23 | 1.01 | inactive |
| LINC02878 (GeneID 286076) | -0.51 | 0.09 | -0.58 | -1.04 | inactive |
| CRHR1 (GeneID 1394) | -0.96 | -1.09 | -0.87 | -0.91 | inactive |
| RPL10A (GeneID 4736) | -4.02 | -3.61 | -3.9 | -4.54 | inactive |
| LOC400849 (retired record) (GeneID 400849) | -0.93 | -1 | -0.66 | -1.15 | inactive |
| SPTSSB (GeneID 165679) | -0.27 | -0.36 | -0.25 | -0.2 | inactive |
| AFG1L (GeneID 246269) | -0.73 | -1.02 | -0.47 | -0.7 | inactive |
| FLJ42258 (retired record) (GeneID 440049) | 0.2 | 0.11 | 0.47 | 0.03 | inactive |
| ZNF479 (GeneID 90827) | -0.99 | -0.98 | -0.86 | -1.12 | inactive |
| CTCF (GeneID 10664) | -1.14 | -1.29 | -1.18 | -0.96 | inactive |
| BCAS1 (GeneID 8537) | -0.61 | -0.58 | -0.67 | -0.57 | inactive |
| GRIN2D (GeneID 2906) | 0.28 | 0.23 | 0.24 | 0.38 | inactive |
| LOC129026 (GeneID 129026) | -0.34 | -0.55 | -0.2 | -0.26 | inactive |
| NTN5 (GeneID 126147) | 0.39 | 0.7 | 0.3 | 0.15 | inactive |
| PACSIN3 (GeneID 29763) | -0.39 | -0.28 | -0.27 | -0.62 | inactive |
| ANO3 (GeneID 63982) | -2.22 | -2.3 | -2.6 | -1.75 | inactive |
| HCRT (GeneID 3060) | -0.29 | -0.47 | -0.3 | -0.09 | inactive |
| TRIM24 (GeneID 8805) | -0.35 | -0.38 | -0.34 | -0.33 | inactive |
| HPRT1 (GeneID 3251) | -1.48 | -1.48 | -1.31 | -1.65 | inactive |
| GPR160 (GeneID 26996) | 0.68 | 0.65 | 0.51 | 0.89 | inactive |
| DAND5 (GeneID 199699) | -0.03 | 0.18 | -0.21 | -0.06 | inactive |
| MSH6 (GeneID 2956) | -0.2 | -0.07 | -0.42 | -0.13 | inactive |
| LAIR1 (GeneID 3903) | 1.75 | 1.76 | 1.8 | 1.7 | inactive |
| JAK3 (GeneID 3718) | -1.3 | -1.19 | -1.69 | -1.01 | inactive |
| FUNDC2 (GeneID 65991) | 0.95 | 0.93 | 0.98 | – | inactive |
| PRKG1 (GeneID 5592) | -0.13 | 0.02 | -0.14 | -0.26 | inactive |
| MIR3150BHG (GeneID 105375650) | -0.17 | 0.49 | -0.67 | -0.34 | inactive |
| LOC440318 (retired record) (GeneID 440318) | 0.13 | 0.3 | 0.16 | -0.07 | inactive |
| CDC42EP5 (GeneID 148170) | 0.2 | 0.19 | 0.67 | -0.26 | inactive |
| DPY19L3-DT (GeneID 400684) | 0.03 | -0.22 | 0.26 | 0.05 | inactive |
| ABCB8 (GeneID 11194) | 0.31 | -0.08 | 0.33 | 0.67 | inactive |
| DUSP10 (GeneID 11221) | -0.43 | -0.09 | -0.24 | -0.96 | inactive |
| COX11 (GeneID 1353) | 0.92 | 0.97 | 0.79 | 0.99 | inactive |
| GLRX5 (GeneID 51218) | -0.04 | 0.25 | -0.2 | -0.18 | inactive |
| WDR86 (GeneID 349136) | 0.3 | 0.44 | 0.21 | 0.27 | inactive |
| SLC15A3 (GeneID 51296) | -0.33 | -0.25 | -0.53 | -0.22 | inactive |
| GPR55 (GeneID 9290) | -0.11 | -0.49 | 0.11 | 0.05 | inactive |
| FCHO2 (GeneID 115548) | -0.92 | -0.46 | -1.2 | -1.11 | inactive |
| BMS1P1 (GeneID 399761) | 0.31 | 0.15 | -0.09 | 0.86 | inactive |
| NNMT (GeneID 4837) | 1.75 | 1.54 | 1.69 | 2.02 | inactive |
| KCTD21 (GeneID 283219) | 0.52 | 0.38 | 0.76 | 0.41 | inactive |
| PTGIS (GeneID 5740) | -0.18 | 0.71 | -0.62 | -0.64 | inactive |
| MRPL37 (GeneID 51253) | -0.7 | 0.02 | -1.03 | -1.09 | inactive |
| ATP6AP1L (GeneID 92270) | -0.57 | -0.64 | -0.65 | -0.41 | inactive |
| PLBD1 (GeneID 79887) | 0.8 | 1.05 | 0.99 | 0.37 | inactive |
| KRTAP4-4 (GeneID 84616) | -0.97 | -0.6 | -1.39 | -0.92 | inactive |
| CAVIN4 (GeneID 347273) | -0.92 | -0.78 | -1.1 | -0.87 | inactive |
| ZNF473 (GeneID 25888) | 0.06 | 0.17 | 0.16 | -0.16 | inactive |
| KCNQ4 (GeneID 9132) | -0.67 | -0.52 | -0.6 | -0.88 | inactive |

6 successive records already listed, quoted:
| gene knocked down | mean z-score | z-score, replicate A | z-score, replicate B | z-score, replicate C | Call |
| --- | --- | --- | --- | --- | --- |
| TCEA1 (GeneID 6917) | -1.22 | -1.17 | -1.27 | -1.2 | inactive |
| ERICH6B (GeneID 220081) | -0.25 | 0.07 | -0.19 | -0.63 | inactive |
| SCN10A (GeneID 6336) | -1.19 | -1.39 | -0.99 | -1.2 | inactive |
| CYB5R4 (GeneID 51167) | -0.01 | -0.24 | 0.22 | -0.02 | inactive |
| DNAL4 (GeneID 10126) | -0.39 | -0.69 | -0.21 | -0.28 | inactive |
| NIP7 (GeneID 51388) | 1.28 | 2 | 0.9 | 0.95 | inactive |
